Compound potency records, mixed from different reports. Data source: NIAID ChemDB in PubChem.

All rows: growth or infection tests; species: Candida albicans; read-out: MIC

Conditions beyond the fields shown may differ between rows. An empty or dashed field is not shown.

smiles	strain or isolate	result
NNc1nnc2c(n1)Nc1ccccc1C2	ATCC 2091	200 µg/mL
N/C(=N\N=C(/Cn1cncn1)c1ccc(-c2ccccc2)cc1)c1ccccn1	Isolate 685	64 µg/mL
Cc1onc(-c2ccc(F)cc2)c1C=O		>50 µg/mL
NS(=O)(=O)c1ccc(C2C=C(c3ccc(Cl)cc3)CC2c2ccccc2)cc1	ATCC 2091	200 µg/mL
O=C(Nc1cccc(F)c1)c1ccccc1O	ATCC 44859	125 µM
CC1(C)CC(=O)c2cc(-c3nnc4n3-c3nc5ccccc5nc3NN4)[nH]c2C1	ATCC 2091	200 µg/mL
Clc1ccc(COC(Cn2ccnc2)c2ccc(Cl)cc2Cl)c(Cl)c1	KULM 83-0030	0.5 µg/mL
N/C(=N\N=C(/Cn1ccnc1)c1ccc(Cl)s1)c1ccccn1	Isolate 685	0.5 µg/mL
O=C(Nc1ccc(F)cc1)c1ccccc1O	ATCC 44859	62.5 µM
CCC(C)C(Cn1ccnc1)c1ccc(Cl)cc1Cl		100 µg/mL
Cc1onc(-c2cccc(Br)c2)c1C=O		50 µg/mL
O/N=C(\c1ccc(Cl)cc1)c1oc2ccccc2c1Cn1ccnc1	Clinical isolate	25 µg/mL
C[C@H]1[C@H](O)[C@@H](C)/C=C/C=C/C=C/C=C/C=C/C=C/C=C/[C@H](O[C@@H]2O[C@H](C)[C@@H](O)[C@H](N)[C@@H]2O)C[C@@H]2O[C@](O)(C[C@@H](O)C[C@@H](O)CC[C@H](O)[C@@H](O)C[C@@H](O)CC(=O)O[C@H]1C)C[C@H](O)[C@H]2C(=O)O	ATCC 64548	0.25 µg/mL
Cc1ccc2oc(C(=O)c3ccc(Cl)cc3)c(C)c2c1	Clinical isolate	50 µg/mL
CCCC(Cn1ccnc1)c1ccc(Cl)cc1Cl		>100 µg/mL
CCOC(=O)Cc1nnc2nnc3c(n12)Nc1ccccc1C3	ATCC 2091	200 µg/mL
Cc1onc(-c2ccccc2Cl)c1C=O		>50 µg/mL
CCCCCCC(Cn1ccnc1)c1ccccc1Br		10 µg/mL
O=C(Nc1cccc(Cl)c1)c1ncccc1O	ATCC 44859	>125 µM
S=c1nc2c(n[nH]1)Nc1ccccc1N2	ATCC 2091	200 µg/mL
CO[C@H]1C[C@@H]2CC[C@@H](C)[C@@](O)(O2)C(=O)C(=O)N2CCCC[C@H]2C(=O)O[C@H]([C@H](C)C[C@@H]2CC[C@@H](O)[C@H](OC)C2)CC(=O)[C@H](C)/C=C(\C)[C@@H](O)[C@@H](OC)C(=O)[C@H](C)C[C@H](C)/C=C/C=C/C=C/1C	ATCC11651	<0.0625 µg/mL
O=Cc1cc(-c2ccc(Cl)cc2Cl)on1		12.5 µg/mL
CC1=NN(c2nnc3c(n2)Nc2ccccc2C3)C(=O)C1=C(C)C	ATCC 2091	200 µg/mL
CCC(Cn1ccnc1)c1ccc(Cl)cc1Cl		100 µg/mL
N/C(=N\N=C(/Cn1ccnc1)c1ccc(-c2ccccc2)cc1)c1ccccn1	Isolate 685	0.25 µg/mL
CN[C@@H]1[C@H](O[C@@H]2O[C@H](CO)[C@@H](O)[C@H](S(=O)(=O)O)[C@H]2O)[C@@H](O)[C@H](O[C@H]2c3cc(C)c(C(=O)N[C@H](C)C(=O)O)c(O)c3-c3c(cc4c(c3O)C(=O)c3cc(OC)cc(O)c3C4=O)[C@@H]2O)O[C@@H]1C	A9540	25 µg/mL
C[C@H]1N(C(=O)c2ccc(C(F)(F)F)cc2)C[C@@H](O)O[C@@]1(Cn1cncn1)c1ccc(F)cc1F	Isolate 1	>64 µg/mL
C[C@H]1[C@H](O)[C@@H](C)/C=C/C=C/C=C/C=C/C=C/C=C/C=C/[C@H](O[C@@H]2O[C@H](C)[C@@H](O)[C@H](N)[C@@H]2O)C[C@@H]2O[C@](O)(C[C@@H](O)C[C@@H](O)CC[C@H](O)[C@@H](O)C[C@@H](O)CC(=O)O[C@H]1C)C[C@H](O)[C@H]2C(=O)O	B59630	0.125 µg/mL
C=CCN(CC=C)c1nnc2c(cnc3ccccc32)n1	M-3	50 µg/mL
COc1ccc(CN2C[C@H](OC[C@@]34C[C@@H]5[C@H](C)CC[C@H]5[C@@]5(C=O)C[C@@H]3CC(C(C)C)[C@@]45C(=O)O)O[C@H](C)C2)cc1	CL-245 (fluconazole-resistant)	≤0.001 µg/mL
O=Cc1cc(-c2ccccc2Br)no1		50 µg/mL
O=C(Nc1ccc(Cl)c(Cl)c1)c1ncccc1O	ATCC 44859	>250 µM
C=C=CCN1C[C@H](OC[C@@]23C[C@@H]4[C@H](C)CC[C@H]4[C@@]4(C=O)C[C@@H]2CC(C(C)C)[C@@]34C(=O)O)O[C@H](C)C1	CL-236	0.004 µg/mL
COc1nnc2c(cnc3ccccc32)n1	M-3	20 µg/mL
N/C(=N\N=C(/Cn1cncn1)c1ccc(Cl)cc1)c1ccccn1	Isolate 685	2 µg/mL
Cc1c(/C(=N\O)c2ccc(Cl)cc2)oc2ccccc12	Clinical isolate	12.5 µg/mL
O=Cc1cc(-c2ccccc2Cl)no1		50 µg/mL
Nn1c(-c2cnccn2)n[nH]c1=S	CNCM 1180-79	>300 µg/mL
CC(C)C1C[C@H]2C[C@]3(C=O)[C@@H]4CC[C@@H](C)[C@H]4C[C@@]2(CO[C@H]2CN(C4CC4)C[C@@H](C)O2)[C@]13C(=O)O	4711E	0.002 µg/mL
Cc1c(C(=O)c2ccccc2)oc2ccccc12	Clinical isolate	25 µg/mL
CCCCCCCCC(Cn1ccnc1)c1ccc(F)cc1		10 µg/mL
S=c1[nH]nc(C23CC4CC(CC(C4)C2)C3)n1-c1ccc(Cl)cc1Cl	CNCM 1180-79	>300 µg/mL
COC1CC2CCC(C)C(O)(O2)C(=O)C(=O)N2CCCC2C(=O)OC(C(C)CC2CCC(O)C(OC)C2)CC(=O)C(C)/C=C(\C)C(O)C(OC)C(=O)C(C)CC(C)/C=C/C=C/C=C/1C	ATCC11651	1 µg/mL
CCCCCC(Cn1ccnc1)c1ccccc1Cl		>100 µg/mL
Cc1onc(-c2ccc(OCc3ccccc3)cc2)c1C=O		>50 µg/mL
CCCCC(Cn1ccnc1)c1ccc(Cl)cc1		100 µg/mL
Cc1ccc2oc(/C(=N/O)c3ccc(Cl)cc3)c(C)c2c1	Clinical isolate	12.5 µg/mL
O=C(NNC(=S)Nc1ccc(Cl)cc1Cl)C12CC3CC(CC(C3)C1)C2	CNCM 1180-79	>300 µg/mL
N=C(N)c1ccc2nc(-c3ccc(-c4nc5ccc(C(=N)N)cc5[nH]4)[nH]3)[nH]c2c1	ATCC 76615	0.39 µg/mL
Cc1onc(-c2ccccc2)c1C=O		>50 µg/mL
CCCCCCCC(Cn1ccnc1)c1ccc(F)cc1		10 µg/mL

4 of the rows above, restated:

smiles | strain or isolate | result
N/C(=N\N=C(/Cn1ccnc1)c1ccc(-c2ccccc2)cc1)c1ccccn1 | Isolate 685 | 0.25 µg/mL
Cc1ccc2oc(C(=O)c3ccc(Cl)cc3)c(C)c2c1 | Clinical isolate | 50 µg/mL
C[C@H]1[C@H](O)[C@@H](C)/C=C/C=C/C=C/C=C/C=C/C=C/C=C/[C@H](O[C@@H]2O[C@H](C)[C@@H](O)[C@H](N)[C@@H]2O)C[C@@H]2O[C@](O)(C[C@@H](O)C[C@@H](O)CC[C@H](O)[C@@H](O)C[C@@H](O)CC(=O)O[C@H]1C)C[C@H](O)[C@H]2C(=O)O | B59630 | 0.125 µg/mL
CCC(C)C(Cn1ccnc1)c1ccc(Cl)cc1Cl |  | 100 µg/mL